Drawing on PubChem BioAssay AID624414 (National Center for Advancing Translational Sciences (NCATS), 2012), this text covers activation for 63 compounds.

Sequences of proteins named here, by UniProt entry; tags and fusion partners are left off.
UniProt Q9GZU1, whole entry: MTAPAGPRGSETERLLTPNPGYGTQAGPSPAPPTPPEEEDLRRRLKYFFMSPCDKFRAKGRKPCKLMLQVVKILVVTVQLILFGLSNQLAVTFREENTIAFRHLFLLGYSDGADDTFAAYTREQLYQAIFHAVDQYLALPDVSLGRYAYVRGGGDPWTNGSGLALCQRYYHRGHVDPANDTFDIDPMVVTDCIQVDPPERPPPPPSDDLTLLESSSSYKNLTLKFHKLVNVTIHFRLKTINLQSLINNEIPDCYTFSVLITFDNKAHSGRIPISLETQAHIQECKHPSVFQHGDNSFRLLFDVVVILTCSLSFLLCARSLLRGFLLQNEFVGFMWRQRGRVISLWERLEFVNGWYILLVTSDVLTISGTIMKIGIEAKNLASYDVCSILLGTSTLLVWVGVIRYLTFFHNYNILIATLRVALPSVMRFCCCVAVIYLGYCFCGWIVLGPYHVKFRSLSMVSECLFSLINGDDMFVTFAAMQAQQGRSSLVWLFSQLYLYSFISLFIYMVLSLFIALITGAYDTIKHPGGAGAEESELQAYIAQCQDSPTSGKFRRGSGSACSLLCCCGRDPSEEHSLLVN

The list shows a part of the results, in another mix than the full data. The source made the active and inactive calls. Rule as the data show it: active = activation above about 50%; inconclusive = mostly about 30% to 49%; inactive = weaker than that.

In the test the target is Mucolipin-1 (Homo sapiens) (UniProt Q9GZU1). In words: qHTS for Agonists of the Human Mucolipin Transient Receptor Potential 1 (TRPML1). Also: 0% is about no effect. The conditions noted are these: TRPML1-expressing cells, Ca2+ dye fluorescence, FDSS; active compounds read high. In outline: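 Cells: TRPML1-DL, 1X Tet inducer, ~16 h at 37 degrees C/5% CO2. Dye: ABD Ca8 no-wash + quencher, 45-90 min RT. Read: 10 s baseline, compound add, 110 s agonist phase; 54-4 EC80 (4uM final), 110 s antagonist phase.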
On the technique in general: In qHTS, concentration-response curves come from the screen itself.
In the case of `CC(C)NC(=O)NP(=O)(Oc1ccccc1)Oc1ccccc1`, the activation is inactive: -0.648%.

In the case of `CCN(CC)C(=S)SC(NC=O)C(Cl)(Cl)Cl` (stereo not drawn), the activation is inactive: -0.618%.

In the case of `O=C(OC1CN2CCC1CC2)c1cccc2[nH]cnc12` (stereo not drawn), the activation is inactive: 1.06%.

As to `COc1ccc(OP(C)(=O)Nc2cccc(F)c2)cc1` (stereo not drawn), the activation was inactive: -0.46%.

As for `O=[N+]([O-])c1cc([N+](=O)[O-])c(-c2ccn[nH]2)s1`, the activation is inactive: 0.827%.

In the case of `Cc1cc(C)cc(OP(C)(N)=O)c1` (stereo not drawn), the activation is inactive: -0.855%.

As for `CCOC(=O)c1ccc(NP(C)(=O)Oc2ccccc2)cc1` (stereo not drawn), the activation is inactive: 0.842%.

Regarding `ClCCSc1nnc(-c2cccnc2)o1`, the activation is inactive: -0.145%.

For `O=Cc1ccc(NCCCl)cc1`, the activation was inactive: -0.887%.

Consider `COc1ccccc1OP(C)(=O)Nc1ccc(C)cc1` (stereo not drawn), for which the activation is inactive: 0.325%.

As for `COC(=O)C1(C)COP(=O)(N2CCCCCC2)OC1` (stereo not drawn), the activation was inactive: 0.184%.

With `Cc1ccc(NP(C)(=O)Oc2ccccc2)c(C)c1` (stereo not drawn), the activation was inactive: -0.169%.

For `CC(C)c1ccc(OP(=O)(Nc2ccccn2)Oc2ccccc2F)cc1` (stereo not drawn), the activation is inactive: 1.24%.

With `O=P1(N(CCCl)CCCl)OCCCN1CCCl` (stereo not drawn), the activation is inactive: 1.03%.

In the case of `O=P1(N(CCCl)CCCl)Nc2ccccc2N1`, the activation is inactive: 0.739%.

`COc1ccc2nc(NP(=O)(c3ccccc3)c3ccccc3)sc2c1`: the activation was inactive: 0.486%.

As for `COc1cc(I)ccc1[As](=O)(O)O`, the activation was inactive: 0.894%.

Turning to `Cc1c2c(nc3ccccc13)SC(C(Cl)Cl)C2` (stereo not drawn), the activation is inactive: 1.38%.

Take `O=C(OC1CN2CCC1CC2)C12CC3CC(CC(C3)C1)C2` (stereo not drawn): the activation was inactive: 2.04%.

`Cc1cc(=O)[nH]c(N[N+](=O)[O-])n1`: the activation is inactive: 0.466%.

As for `CCN(CC)CCCOC(=O)C(O)(c1ccccc1)c1ccccc1`, the activation is inactive: 1.21%.

With `COc1ccc(N/C(=N/P(=O)(N2CCOCC2)N2CCOCC2)N2CCOCC2)cc1`, the activation was inactive: -0.118%.

As for `COc1ccccc1-c1ccccn1.O=[N+]([O-])c1cc([N+](=O)[O-])c(O)c([N+](=O)[O-])c1`, the activation is inactive: -0.611%.

In the case of `O=C(COc1ccccc1)OC1CN2CCC1CC2` (stereo not drawn), the activation is inactive: -0.605%.

In the case of `CP(=O)(NC(=O)Nc1ccccc1)Oc1ccccc1` (stereo not drawn), the activation is inactive: 0.654%.

With `CCc1ccc(OP(C)(=O)N2CCN(c3ccc([N+](=O)[O-])cc3)CC2)cc1` (stereo not drawn), the activation was inactive: 1.16%.

As for `O=C(Nc1ccncc1[N+](=O)[O-])c1ccc([N+](=O)[O-])cc1[N+](=O)[O-]`, the activation is inactive: 1.03%.

As for `Cc1cc(C)cc(OP(C)(=O)Nc2ccc(SC(F)(F)F)cc2)c1` (stereo not drawn), the activation is inactive: 0.596%.

For `COP1(=S)c2c(C)nn(CCC#N)c2N=C(c2ccc(F)cc2)N1C` (stereo not drawn), the activation was inactive: 0.147%.

On to `Cc1cccc(C)c1OP(C)(=O)Nc1ccc(SC(F)(F)F)cc1` (stereo not drawn), for which the activation was inactive: 0.215%.

For the compound `CP(=O)(Nc1ccc(SC(F)(F)F)cc1)Oc1ccc(Cl)cc1` (stereo not drawn), the activation was inactive: 1.42%.

Regarding `CP(=O)(Oc1ccccc1)OC(c1ccccc1)C(F)(F)F` (stereo not drawn), the activation is inactive: 1.59%.

On to `COC(=O)C1(C)COP(=O)(N2CCCC2)OC1` (stereo not drawn), for which the activation is inactive: -0.58%.

Regarding `CCC(C)N(CC(C)C)C(=S)SC(NC(C)=O)C(Cl)(Cl)Cl` (stereo not drawn), the activation is inactive: -0.551%.

For the compound `CP(=O)(Nc1ccccn1)Oc1ccc(Cl)cc1` (stereo not drawn), the activation was inactive: -0.56%.

Turning to `CCOP(=O)(Nc1cccc2cccnc12)OCC`, the activation was inactive: 2.65%.

Consider `O=C(OC1CN2CCC1CC2)c1cccc([N+](=O)[O-])c1` (stereo not drawn), for which the activation was inactive: 0.204%.

Consider `CCOP(C)(=S)SCC(=O)NC(C)C(=O)O` (stereo not drawn), for which the activation is inactive: -0.0707%.

In the case of `CSc1ccc(Nc2c([N+](=O)[O-])cc([N+](=O)[O-])cc2[N+](=O)[O-])cc1`, the activation was inactive: 5.63%.

As to `CCOC(=O)c1ccc(NC(=O)C(C)(CCl)SC)cc1` (stereo not drawn), the activation was inactive: 1.11%.

For the compound `CCOC(=O)c1ccc(NP(C)(=O)Oc2ccc(OC)cc2)cc1` (stereo not drawn), the activation was inactive: 0.507%.

Turning to `O=[N+]([O-])c1cc([N+](=O)[O-])c(O)c([N+](=O)[O-])c1.c1ccc(Oc2ccncc2)cc1`, the activation was inactive: 0.169%.

In the case of `COP(=O)(OC)N1CC1c1ccccc1` (stereo not drawn), the activation was inactive: -0.385%.

For `CCCCOc1ccc(C(=O)NCC2(N3CCCCC3)CCCCC2)cc1OC`, the activation was inactive: 28.1%.

In the case of `Cc1cc(SC(NC(=O)c2ccccc2)C(Cl)(Cl)Cl)nc(C(C)C)n1` (stereo not drawn), the activation is inactive: 0.28%.

In the case of `O=C(O)C(=O)c1ccc(N(CCCl)CCCl)cc1.c1ccc(Nc2ccccc2)cc1`, the activation is inactive: -0.42%.

With `CC1CCNP(=O)(N(CCCl)CCCl)O1` (stereo not drawn), the activation is inactive: -0.405%.

Regarding `O=P(Nc1ccccn1)(c1cccc2ccccc12)c1cccc2ccccc12`, the activation is inactive: 1.25%.

As for `Cc1cc(SC(NC=O)C(Cl)(Cl)Cl)ncn1` (stereo not drawn), the activation was inactive: -0.579%.

As for `COc1ccccc1OP(C)(=O)Nc1ccccc1` (stereo not drawn), the activation is inactive: -0.606%.

In the case of `CP(=O)(Nc1ccccc1Br)Oc1ccccc1` (stereo not drawn), the activation was inactive: -0.89%.

In the case of `O=[N+]([O-])c1ccc(Nc2ccc(Oc3ccc([N+](=O)[O-])cc3[N+](=O)[O-])cc2)c([N+](=O)[O-])c1`, the activation was inactive: -0.0843%.

On to `CP(=S)(Nn1cnnc1)Oc1ccccc1` (stereo not drawn), for which the activation is inactive: -0.369%.

`CCOC(=O)Nc1cccc([As](=O)(O)O)c1`: the activation is inactive: 1.18%.

As to `CP(=O)(OC12CC3CC(CC(C3)C1)C2)OC12CC3CC(CC(C3)C1)C2`, the activation is inactive: 3.1%.

With `CCOC(=O)c1ccc(NP(C)(=O)Oc2ccc(Cl)cc2)cc1` (stereo not drawn), the activation is inactive: -0.404%.

Regarding `O=P(/N=c1/nc(-c2ccccc2)n(-c2ccccc2)s1)(Nc1ccccc1)Nc1ccccc1`, the activation is inactive: -0.0317%.

`O=C(Nc1cc([As](=O)(O)O)ccc1O)c1ccccc1`: the activation was inactive: 2.6%.

Consider `Cc1cc(C=O)ccc1N(CCCl)CCCl`, for which the activation is inactive: -0.295%.

In the case of `O=P1(N(CCCl)CCCl)OCCCS1` (stereo not drawn), the activation is inactive: 0.583%.

Consider `Nc1ccc2c(ccc3cccnc32)n1.O=[N+]([O-])c1cc([N+](=O)[O-])c(O)c([N+](=O)[O-])c1`, for which the activation was inactive: 5.53%.

Regarding `O=C(O)CNc1ccc([As](=O)(O)O)cc1`, the activation was inactive: 1.13%.

For `COC(=O)C1(C)COP(=O)(Nc2ccccc2)OC1` (stereo not drawn), the activation is inactive: 0.23%.
